Source: PMC8515920
For at least one entry, the source does not settle the construct or the ends of the probe.

Sequences of proteins named here, by UniProt entry; tags and fusion partners are left off. A change or cut given only in a name is not applied to a line headed by its entry.
UniProt P0ACJ8: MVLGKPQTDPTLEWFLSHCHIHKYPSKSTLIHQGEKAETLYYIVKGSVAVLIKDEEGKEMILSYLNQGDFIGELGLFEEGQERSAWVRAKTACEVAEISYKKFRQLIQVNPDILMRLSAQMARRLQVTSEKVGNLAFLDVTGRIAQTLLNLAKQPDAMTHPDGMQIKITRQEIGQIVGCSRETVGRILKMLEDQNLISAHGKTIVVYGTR

Target: His6-CRP (cAMP receptor protein) (UniProt P0ACJ8)
Experiment: EMSA
Conditions: 200 uM cAMP, complexes observed using 100 nM His6-CRP; recombinant protein; protein details: His6; label: none (ethidium bromide stain); probe letters rebuilt from the primers and the genome

## TCTCTCCTGGAGAATTAGGAACGTTCACACGCATAAAATCTTCTCTTGAAGAAGAAATTAAAGATCTAAAGAAATGCCGCCAGCTTACCGTGAGATGCTTCTAAGAAAACACCGCAAAACAAGCAACATATAAGCAACACAAACATAACTAAGCGTTGCTTTCAATAGTCTATCTTCGAACCTCACCCTCAGTCAATTTGATTTCCAAAAAAAAATCATATAGCAAAAAATAAAAAACAATCAAAAATAATAACCATAAAAATCAATAACATGTAAAAACATAAATCAAATATAAATTTTTTTGATTGACATAATGCACTCATTGGCGTGCAATATTTGTGCAAACCGTATCGTCTTTCATGTCCAGTAAACAGACAAGGAATAGCACTTTCTCATCGCTTTTTTGTTAAAAAACAAACGAAAAACCTGTTAAATTTCGAGTGAGAGA (double strand) [aroX-npsA intergenic region]
  binding result: binds
